For some of these results: A negative result means that nothing was seen under these conditions. For some of these results: Tags and fusion partners may be left off the protein sequences shown. Construct, isoform or probe ends are uncertain for at least one entry.
What was measured:
Assay in all cases: MST
[1] = target: T1, SpnNrdR (Streptococcus pneumoniae TIGR4) (UniProt P67318); conditions: temperature not stated, recombinant protein, residues 1-157, protein details: C-terminal His6, label: 5'-Cy5 sense
T1 sequence (looked up): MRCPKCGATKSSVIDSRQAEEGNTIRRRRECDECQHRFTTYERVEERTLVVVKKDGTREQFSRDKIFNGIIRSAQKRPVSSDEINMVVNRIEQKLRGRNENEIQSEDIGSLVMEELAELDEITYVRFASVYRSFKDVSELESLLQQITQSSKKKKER

Chains of the proteins cited; added tags and fusions are not shown. Lines headed by an entry give the natural chain unless they say otherwise; changes in a name come on top.
UniProt P0A8D0: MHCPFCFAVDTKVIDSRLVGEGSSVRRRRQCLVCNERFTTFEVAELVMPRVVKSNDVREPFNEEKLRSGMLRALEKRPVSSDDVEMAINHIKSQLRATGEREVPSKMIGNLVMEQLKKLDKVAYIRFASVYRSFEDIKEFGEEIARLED
UniProt Q8Y6W9: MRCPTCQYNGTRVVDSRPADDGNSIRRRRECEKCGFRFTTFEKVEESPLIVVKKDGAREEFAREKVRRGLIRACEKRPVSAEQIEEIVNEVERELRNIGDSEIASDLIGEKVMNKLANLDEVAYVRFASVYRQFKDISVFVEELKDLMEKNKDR

[2] = target: EcoNrdR (Escherichia coli) (UniProt P0A8D0); conditions: dATP + ATP, temperature not stated, recombinant protein, label: 5'-Cy5 sense
apo-LmoNrdR = apo-LmoNrdR (UniProt Q8Y6W9); conditions: temperature not stated, recombinant protein
[3] = ADP, residues 1-154, protein details: C-terminal His6, label: 5'-Cy5 sense
[4] = ATP, residues 1-154, protein details: C-terminal His6, label: 5'-Cy5 sense
[5] = c-di-AMP + ATP, residues 1-154, protein details: C-terminal His6, label: 5'-Cy5 sense
[6] = c-di-AMP + dATP, residues 1-154, protein details: C-terminal His6, label: 5'-Cy5 sense
[7] = c-di-AMP, residues 1-154, protein details: C-terminal His6, label: 5'-Cy5 sense
[8] = dATP + ADP, residues 1-154, protein details: C-terminal His6, label: 5'-Cy5 sense
[9] = dATP + ATP, residues 1-154, protein details: C-terminal His6, label: 5'-Cy5 sense
[10] = dATP, residues 1-154, protein details: C-terminal His6, label: 5'-Cy5 sense
[11] = no effector, residues 1-154, protein details: C-terminal His6, label: 5'-Cy5 sense

Sequence “AACCAAATCAATATCTTGTGTATTTTTAAAAATTTTAGGATTTTTAACACAAGATATTGATTTTCCT (double strand) [Spn nrdDG (25 bp spacer)]” has a Kd ([1]; dATP + ATP) of 15000 nM.
For “ACTATTTATTATGGATTATGTGGTTGAATCTTTTTTCAACTACATCTAGTATCTCTG (double strand) [Eco nrdHIEF box 1 mutated]”, the Kd [2] was > 69000 nM.
“ACTATTTGCTATATATTGTGTGGTTGAATCTTTTTTGAATTACGGCTAATATCTCTG (double strand) [Eco nrdHIEF box 2 mutated]” was tested, and the Kd [2] was > 130000 nM.
With “CAATAAAACTTCATCTTGTGTTATATTATTAAAGCAGACACAATATATAGTTAGTGGG (double strand) [Lmo nrdDG (16 bp spacer)]” the Kd (apo-LmoNrdR; [3]) was 132 nM, the Kd (apo-LmoNrdR; [4]) was 209 nM and the Kd (apo-LmoNrdR; [5]) was 130 nM. The Kd (apo-LmoNrdR; [6]) was 201 nM, the Kd (apo-LmoNrdR; [7]) was 188 nM and the Kd (apo-LmoNrdR; [8]) was 28 nM. For the same sequence, the Kd (apo-LmoNrdR; [9]) was 2.2 nM, the Kd (apo-LmoNrdR; [10]) was 79 nM and the Kd (apo-LmoNrdR; [11]) was > 804 nM.
Work on “CCAGAGTACTATATCTTGCATTCACAATGAAAAAGTTATACTATATATAGTATCGAAC (double strand) [Lmo nrdAB proximal (16 bp spacer)]” yielded a Kd (apo-LmoNrdR; [3]) of 66 nM, a Kd (apo-LmoNrdR; [4]) of 65 nM and a Kd (apo-LmoNrdR; [5]) of 39 nM. For the same sequence, the Kd (apo-LmoNrdR; [6]) was 34 nM, the Kd (apo-LmoNrdR; [7]) was 169 nM and the Kd (apo-LmoNrdR; [8]) was 10 nM. For the same sequence, the Kd (apo-LmoNrdR; [9]) was 4.7 nM, the Kd (apo-LmoNrdR; [10]) was > 909 nM and the Kd (apo-LmoNrdR; [11]) was > 340 nM.
“CTTAACTACTAAATATAGAAACTAGCGAAAAAATAGGCACTAGAAGTAGTAGCATTC (double strand) [Lmo nrdAB distal (15 bp spacer)]” gave a Kd (apo-LmoNrdR; ADP, residues 1-154, protein details: C-terminal His6) of 271 nM, a Kd (apo-LmoNrdR; ATP (> 508 in Fig S2), residues 1-154, protein details: C-terminal His6) of 508 nM and a Kd (apo-LmoNrdR; c-di-AMP + ATP (> 743 in Fig S2), residues 1-154, protein details: C-terminal His6) of 743 nM. It also gave a Kd (apo-LmoNrdR; c-di-AMP + dATP (> 356 in Fig S2), residues 1-154, protein details: C-terminal His6) of 356 nM, a Kd (apo-LmoNrdR; c-di-AMP, residues 1-154, protein details: C-terminal His6) of 211 nM and a Kd (apo-LmoNrdR; dATP + ADP, residues 1-154, protein details: C-terminal His6) of 129 nM. The Kd (apo-LmoNrdR; dATP + ATP, residues 1-154, protein details: C-terminal His6) was 21.2 nM, the Kd (apo-LmoNrdR; dATP, residues 1-154, protein details: C-terminal His6) was > 334 nM and the Kd (apo-LmoNrdR; no effector, residues 1-154, protein details: C-terminal His6) was > 1700 nM.
“GATTTGCTGAAAACCTTGTTGTAATCATTGTTTAGACACTTTTCGTAATAAAACCAG (double strand) [Negative control]”: no binding (apo-LmoNrdR; effector not stated, residues 1-154, protein details: C-terminal His6, label: 5'-Cy5 sense).
“TACAAACACTATATATTGTGTTTATATATAAAAACAACAAAAGAACACCACTATATTTAGTTCAAATC (double strand) [Spn nrdHEF box 1+2 (26 bp spacer)]” was tested, and the Kd ([1]; ATP) was > 91000 nM and the Kd ([1]; dATP + ATP) was 11000 nM.
With “TCAAAACACAAGATATAGGGTTGTGTTTCAATACTAAACACAAAATATTGTATTCCTT (double strand) [Sth nrdHEF (16 bp spacer)]” the Kd ([1]; ATP) was > 42000 nM.
With “TCGAAAATCAATATATAGTGGTTGAGATAAAAATATACCACAATATATTGATTTTCCT (double strand) [Sth nrdDG (16 bp spacer)]” the Kd ([1]; ATP) was > 80000 nM.
For “TTTAAAAACAATTTATAGGATAATCATTGCTATTTCACAATACAAACACTATATATTGTGTTTATA (double strand) [Spn nrdHEF box 0+1 (24 bp spacer)]”, the binding result ([1]; ATP) was “no binding” and the Kd ([1]; dATP + ATP) was > 69000 nM.
